A mixed list of measured activities; the numbers were collected in NIAID ChemDB.

Common to all: target-level tests; organism: HIV-1; target: Protease; method: HPLC; read-out: IC50

ICn: concentration for n% inhibition.

| SMILES | conditions | value |
|---|---|---|
| C[N+](Cc1ccccc1)(C[C@H](O)[C@H](Cc1ccccc1)NC(=O)OC1CCOCC1)/N=C(\[O-])c1ccccc1 | - | 3 µM |
| CC(C)=CCc1c2c(c3occ(-c4ccc(O)cc4O)c(=O)c3c1O)C[C@H](O)C(C)(C)O2 | - | 5 µM |
| CC(C)(C)NC(=O)[C@H]1N(C(=O)[C@@H](O)[C@H](Cc2ccccc2)NC(=O)c2ccccc2C(=O)NCc2cccnc2)CSC1(C)C | - | >5 µM |
| Cc1nc(COc2ccc(-c3cc(O)c(Sc4ccccc4C(C)C)c(=O)o3)cc2)cs1 | pH 4.7 | 0.108 µM |
| Cc1c(O)cccc1C(=O)N[C@@H](CC(C)C)C(=O)N(c1ccccc1)N(CO)C(=O)[C@@H]1CCCN1C(=O)OC(C)(C)C | - | 77 µM |
| C[N+](Cc1ccccc1)(C[C@H](O)[C@H](Cc1ccccc1)NC(=O)OCC1CCOC1)/N=C(\[O-])c1ccccc1 | - | 185 µM |
| CC(C)=CCc1c(O)c(CC=C(C)C)c2occ(-c3ccc(O)cc3O)c(=O)c2c1O | - | 4 µM |
| Oc1cc(O)cc(Oc2c(O)cc3c(c2O)Oc2cc(Oc4c(O)cc(O)cc4O)c(O)c(O)c2O3)c1 | - | >100 µM |
| CC1(C)C=Cc2c(cc(O)c3c(=O)c(-c4ccc(O)cc4)coc23)O1 | - | 18.2 µM |
| CC(C)C[C@H](NC(=O)OC(C)(C)C)[C@@H](O)C[N+](C)(Cc1ccccc1)/N=C(\[O-])c1ccccc1 | - | 5 µM |
| CC(C)c1ccccc1Sc1c(O)cc(-c2ccc(OCc3ccncc3)cc2)oc1=O | pH 4.7 | 0.12 µM |
| COC(=O)c1cc(O)c(O)c(O)c1 | - | >100 µM |
| CC(O)[C@H](NC(=O)CCCCCCCCCCCCCCC(=O)N[C@@H](CS(C)(=O)=O)C(=O)N[C@@H](Cc1ccccc1)C(=O)O)C(=O)N[C@@H](CC1CCCCC1)C(=O)N[C@@H](Cc1ccccc1)C(N)=O | - | 0.84 µM |
| C[C@@H]1CC[C@]2(C(=O)O[C@@H]3O[C@H](CO)[C@@H](O)[C@H](O)[C@H]3O)CC[C@@H]3C(=CC[C@H]4[C@@]3(C)CC[C@H]3C(C)(C)[C@H](O)[C@H](O)C[C@]43C)[C@@H]2[C@]1(C)O | - | >100 µM |
| COC(=O)[C@]12CCC(C)(C)CC1C1=CCC3[C@@]4(C)CC[C@H](N)C(C)(C)C4CC[C@@]3(C)[C@]1(C)CC2 | - | >20 µM |
| CC(C)C[C@H](NC(=O)[C@@H](N)CC(C)C)C(=O)N[C@@H](CCC(=O)O)C(=O)N[C@@H](Cc1ccc(O)cc1)C(=O)N[C@H](C=O)CO | - | 0.12 µM |
| COC(=O)CCCCC(=O)O[C@H]1CC[C@@]2(C)C(CC[C@]3(C)C2CC=C2C4CC(C)(C)CC[C@]4(C(=O)O)CC[C@]23C)C1(C)C | - | 5.6 µM |
| CC(C)(C)NC(=O)[C@H]1N(C(=O)[C@@H](O)[C@H](Cc2ccccc2)NC(=O)c2ccccc2C(=O)NCc2ccncc2)CSC1(C)C | - | >5 µM |
| CC(C)C[C@H](NC(=O)[C@@H](NC(=O)CCCCCCCCCCCCCCC(=O)N[C@@H](CC(N)=O)C(=O)N[C@@H](CC1CCCCC1)C(=O)O)C(C)O)C(=O)N[C@H](C(N)=O)C1CCCCC1 | - | 0.55 µM |
| C=C(C)/C([O-])=N/[N+](C)(Cc1ccccc1)C[C@H](O)[C@H](Cc1ccccc1)NC(=O)OC(C)(C)C | - | 5 µM |
| CC(C)(C)OC(=O)N[C@@H](Cc1ccccc1)C(=O)NC[C@@H](CO)NC(=O)[C@H](Cc1ccccc1)NC(=O)OC(C)(C)C | - | 9.7 µM |
| CC1(C)CC[C@]2(C(=O)O)CC[C@]3(C)C(=CCC4[C@@]5(C)CC[C@H](NC(=O)CCCCC(=O)O)C(C)(C)C5CC[C@]43C)C2C1 | - | 3 µM |
| CC[C@H](C)[C@H](NC(=O)[C@@H](NC(=O)CCCCCCCCCCCCCCC(=O)N[C@@H](CC(N)=O)C(=O)N[C@@H](Cc1ccccc1)C(=O)O)C(C)O)C(=O)N[C@@H](Cc1ccccc1)C(N)=O | - | 2.5 µM |
| CC(C)C[C@H](N)C(=O)N[C@@H](CCC(=O)O)C(=O)N[C@@H](Cc1ccc(O)cc1)C(=O)N[C@H](C=O)CO | - | 4.8 µM |
| CC(O)[C@H](NC(=O)CCCCCCCCCCCCCCC(=O)N[C@@H](CC(N)=O)C(=O)N[C@@H](CCc1ccccc1)C(=O)O)C(=O)N[C@H](C(=O)N[C@@H](Cc1ccccc1)C(N)=O)C1CCCCC1 | - | 0.65 µM |
| Cc1ccccc1CNC(=O)[C@H]1N(C(=O)[C@@H](O)[C@H](Cc2ccccc2)NC(=O)c2ccccc2C(=O)NCc2ccncc2)CSC1(C)C | - | <5 µM |
| O=C(N[C@@H](Cc1ccccc1)C(=O)NCC[C@@H](CO)NC(=O)[C@H](Cc1ccccc1)NC(=O)OCC1c2ccccc2-c2ccccc21)OCC1c2ccccc2-c2ccccc21 | - | 0.16 µM |
| CC[C@H](C)[C@@H](C=O)NC(=O)[C@H](CO)NC(=O)[C@H](Cc1ccc(O)cc1)NC(=O)[C@H](CCC(=O)O)NC(=O)[C@H](CC(C)C)NC(=O)[C@@H](N)CC(C)C | - | 0.02 µM |
| COC(=O)[C@]12CCC(C)(C)C[C@H]1C1=CC[C@@H]3[C@@]4(C)CC[C@H](OC(=O)CCCCC(=O)O)C(C)(C)[C@@H]4CC[C@@]3(C)[C@]1(C)CC2 | - | 7.5 µM |
| COc1cc([C@H]2O[C@H](c3ccc(OC(C)C(O)c4ccc5c(c4)OCO5)c(OC)c3)[C@H](C)[C@H]2C)ccc1O | - | >125 µM |
| Cc1ccc(C(C)C)c(Sc2c(O)cc(-c3ccc(OCc4cccnc4)cc3)oc2=O)c1 | pH 4.7 | 0.073 µM |
| Cc1ccccc1CNC(=O)[C@H]1N(C(=O)[C@@H](O)[C@H](Cc2ccccc2)NC(=O)c2ccccc2C(=O)NCc2ccccn2)CSC1(C)C | - | <5 µM |
| O=C(N[C@@H](Cc1ccccc1)C(=O)N[C@H](CO)CCCNC(=O)[C@@H](Cc1ccccc1)NC(=O)OCC1c2ccccc2-c2ccccc21)OCC1c2ccccc2-c2ccccc21 | - | 0.54 µM |
| CC(C)c1ccccc1Sc1c(O)cc(-c2cccc(OCc3cccnc3)c2)oc1=O | pH 4.7 | 0.045 µM |
| CC[C@H](C)[C@H](NC(=O)[C@@H](NC(=O)CCCCCCCCCCCCCCC(=O)N[C@@H](CC(N)=O)C(=O)N[C@@H](CCc1ccccc1)C(=O)O)C(C)O)C(=O)N[C@@H](Cc1ccccc1)C(N)=O | - | 1.24 µM |
| COC(=O)CCCNC(=O)CCCCC(=O)N[C@H]1CC[C@@]2(C)C(CC[C@]3(C)C2CC=C2C4CC(C)(C)CC[C@]4(C(=O)OC)CC[C@]23C)C1(C)C | - | >20 µM |
| CC(C)(C)OC(=O)N[C@@H](Cc1ccccc1)C(=O)NCCC[C@@H](CO)NC(=O)[C@H](Cc1ccccc1)NC(=O)OC(C)(C)C | - | 1.55 µM |
| COC(=O)[C@]12CCC(C)(C)CC1C1=CCC3[C@@]4(C)CC[C@H](NC(=O)CCCCC(=O)O)C(C)(C)C4CC[C@@]3(C)[C@]1(C)CC2 | - | 3 µM |
| CC(C)c1ccccc1Sc1c(O)cc(-c2ccc(Oc3ccccc3)cc2)oc1=O | pH 4.7 | 0.36 µM |
| C[N+](Cc1ccccc1)(C[C@H](O)[C@H](Cc1ccccc1)NC(=O)OC1CCOC1)/N=C(\[O-])c1ccccc1 | - | 0.21 µM |
| O=C(N[C@@H](Cc1ccccc1)C(=O)NCC[C@@H](CO)NC(=O)[C@H](Cc1ccccc1)NC(=O)c1cc2ccccc2o1)c1cc2ccccc2o1 | - | 3 µM |
| CSCC[C@H](NC(=O)c1cccc(O)c1C)C(=O)N(Cc1ccccc1)N(CO)C(=O)[C@@H]1CCCN1C(=O)OC(C)(C)C | - | 135 µM |
| CC(C)c1ccccc1Sc1c(O)cc(-c2cccc(OCc3ccccc3)c2)oc1=O | pH 4.7 | 0.083 µM |
| CC(C)C[C@H](NC(=O)[C@@H](NC(=O)CCCCCCCCCCCCCCC(=O)N[C@@H](CC(N)=O)C(=O)N[C@@H](CCc1ccccc1)C(=O)O)C(C)C)C(=O)N[C@@H](Cc1ccccc1)C(N)=O | - | 0.53 µM |
| CCCCCCCCCCCCCC(=O)N[C@@H](Cc1ccccc1)Oc1ccc([S+](C)C)cc1.COS(=O)(=O)[O-] | - | 240 µM |
| CC(C)C[C@H](NC(=O)CCCCCCCCCCCCCCC(=O)N[C@@H](CC(N)=O)C(=O)N[C@@H](CCc1ccccc1)C(=O)O)C(=O)N[C@@H](CC(C)C)C(=O)N[C@@H](Cc1ccccc1)C(N)=O | - | 0.51 µM |
| COc1cc(C(O)C(C)Oc2ccc([C@@H]3O[C@H](c4ccc(O)c(OC)c4)[C@@H](C)[C@@H]3C)cc2OC)ccc1O | - | >125 µM |
| CC(C)(C)OC(=O)N[C@@H](Cc1ccccc1)C(=O)NC[C@H](NC(=O)[C@H](Cc1ccccc1)NC(=O)OC(C)(C)C)C(=O)O | - | >10 µM |
| CC1(C)C=Cc2c(cc3occ(-c4ccc(O)cc4)c(=O)c3c2O)O1 | - | 30.1 µM |
| CSCC[C@H](NC(=O)CCCCCCCCCCCCCCC(=O)N[C@@H](CC(N)=O)C(=O)N[C@@H](CCc1ccccc1)C(=O)O)C(=O)N[C@@H](CC(C)C)C(=O)N[C@@H](Cc1ccccc1)C(N)=O | - | 0.57 µM |
| CCCCCCCCCCCCCC(=O)Oc1ccc([S+](C)C)cc1.COS(=O)(=O)[O-] | - | 30 µM |
| O=C(N[C@@H](Cc1cccc2ccccc12)C(=O)NCC[C@@H](CO)NC(=O)[C@H](Cc1cccc2ccccc12)NC(=O)OCC1c2ccccc2-c2ccccc21)OCC1c2ccccc2-c2ccccc21 | - | 1.36 µM |
| CC1(C)CC[C@]2(C(=O)O)CC[C@]3(C)C(=CCC4[C@@]5(C)CC[C@H](OC(=O)CCCCCCCCC(=O)O)C(C)(C)C5CC[C@]43C)C2C1 | - | 4 µM |
| O=C(N[C@H](C(=O)NCC[C@@H](CO)NC(=O)[C@@H](NC(=O)OCC1c2ccccc2-c2ccccc21)[C@H](O)c1ccccc1)[C@H](O)c1ccccc1)OCC1c2ccccc2-c2ccccc21 | - | 0.72 µM |
| Cc1c(O)cccc1C(=O)N[C@H](C(=O)N(Cc1ccccc1)N(CO)C(=O)[C@@H]1CCCN1C(=O)OC(C)(C)C)[C@@H](C)O | - | 214 µM |
| COc1cccc2cc(C(=O)N[C@@H](Cc3ccccc3)[C@H](O)C(=O)N3CSC(C)(C)[C@H]3C(=O)NC(C)(C)C)oc12 | - | >5 µM |
| Cc1c(O)cccc1C(=O)N[C@H](C(=O)N(Cc1ccccc1)N(CCO)C(=O)[C@@H]1CCCN1C(=O)OC(C)(C)C)[C@@H](C)O | - | 131 µM |
| CC(C)C[C@H](NC(=O)[C@@H](NC(=O)CCCCCCCCCCCCCCC(=O)N[C@@H](CC(N)=O)C(=O)N[C@@H](Cc1ccccc1)C(=O)O)C(C)O)C(=O)N[C@@H](Cc1ccc(-c2ccccc2)cc1)C(N)=O | - | 1.09 µM |

For reference, 3 entries again:

SMILES	conditions	value
CC1(C)CC[C@]2(C(=O)O)CC[C@]3(C)C(=CCC4[C@@]5(C)CC[C@H](OC(=O)CCCCCCCCC(=O)O)C(C)(C)C5CC[C@]43C)C2C1	-	4 µM
Cc1c(O)cccc1C(=O)N[C@@H](CC(C)C)C(=O)N(c1ccccc1)N(CO)C(=O)[C@@H]1CCCN1C(=O)OC(C)(C)C	-	77 µM
CSCC[C@H](NC(=O)CCCCCCCCCCCCCCC(=O)N[C@@H](CC(N)=O)C(=O)N[C@@H](CCc1ccccc1)C(=O)O)C(=O)N[C@@H](CC(C)C)C(=O)N[C@@H](Cc1ccccc1)C(N)=O	-	0.57 µM

An empty or dashed field is not shown. Lines come from different laboratories, so protocols vary.